Reference: paper PMC13232947, “Structural basis for sarbecovirus Rc-o319 spike adaptation to Rhinolophus cornutus Bat ACE2 and constraints on switching to human ACE2” (2026)

Key:
[1] = biological target: Rc-o319 RBD-Fc, wild type (AA 293-506) (sarbecovirus Rc-o319)
[2] = biological target: Rc-o319 RBD-Fc, wild type (AA 293-506) (sarbecovirus Rc-o319); remark: listed apart in the source
[3] = biological target: Rc-o319 RBD-Fc, wild type (AA 293-506) (sarbecovirus Rc-o319); remark: listed apart in the source
[4] = biological target: Rc-o319-RBD-Fc (wild type) (bat sarbecovirus Rc-o319 (from Rhinolophus cornutus))

| Substance | Kd [1] | koff [1] | kon [1] | Kd [2] | koff [2] | kon [2] | Kd [3] | koff [3] | kon [3] | Kd [4] |
| --- | --- | --- | --- | --- | --- | --- | --- | --- | --- | --- |
| dimeric His-tagged Rhinolophus cornutus ACE2 (bACE2R.cor), AA 1-731 | 0.0759 µM | 0.00647 s⁻¹ | 85200 M⁻¹ s⁻¹ | 0.241 µM | 0.0165 s⁻¹ | 68600 M⁻¹ s⁻¹ | 0.122 µM | 0.00292 s⁻¹ | 23800 M⁻¹ s⁻¹ |  |
| dimeric His-tagged Rhinolophus cornutus bat ACE2 (bACE2_(R.cor)) |  |  |  |  |  |  |  |  |  | 0.076 µM |

Like-named read-outs stand apart in the source and are kept apart here.
